Source: paper PMC9269068, “Ultrapotent antibodies against diverse and highly transmissible SARS-CoV-2 variants” (2021)

Tests used:
[1] = target: full-length S B.1.258.24 (N439K/D614G) (SARS-CoV-2) (UniProt P0DTC2)
[2] = target: full-length S B.1.177.31 (K417N/E484K/N501Y/D614G) (SARS-CoV-2) (UniProt P0DTC2)
[3] = target: full-length S B.1.258.24 (N439K/D614G) (SARS-CoV-2) (UniProt P0DTC2); remark: listed apart in the source

| Substance | fold reduction in binding (MFI) against D614G [1] [fold] | pseudovirus neutralisation IC50; […] [2] [ng/mL] | pseudovirus neutralisation IC50; […] [3] [ng/mL] |
| --- | --- | --- | --- |
| A19-61.1 | < 2 | – | – |
| B1-182.1 | < 2 | < 3.2 | < 3.2 |
